## Structure probing of HIV-1 leader RNA with DMS

The 5' region of HIV-1 NL4-3 RNA (positions 1-437):
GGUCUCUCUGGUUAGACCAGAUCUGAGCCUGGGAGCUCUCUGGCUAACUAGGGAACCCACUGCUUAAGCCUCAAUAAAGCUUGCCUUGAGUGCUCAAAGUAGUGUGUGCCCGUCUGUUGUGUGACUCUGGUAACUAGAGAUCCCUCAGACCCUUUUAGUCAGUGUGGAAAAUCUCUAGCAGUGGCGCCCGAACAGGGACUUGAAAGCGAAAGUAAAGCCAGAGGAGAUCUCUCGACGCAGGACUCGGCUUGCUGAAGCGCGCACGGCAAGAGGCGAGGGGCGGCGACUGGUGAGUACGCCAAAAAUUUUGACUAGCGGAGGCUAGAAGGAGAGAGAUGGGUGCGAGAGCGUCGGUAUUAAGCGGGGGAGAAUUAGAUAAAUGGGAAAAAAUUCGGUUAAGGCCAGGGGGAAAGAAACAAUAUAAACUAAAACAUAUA

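Randomly mutated transcripts starting with one, two or three G (1G, 2G, 3G), capped or uncapped, were folded for 30 min at 37 °C. High salt was 300 mM KCl and 5 mM MgCl2, low salt 40 mM KCl and 0.1 mM MgCl2; monomer and dimer were parted on a native gel. Each band was probed in the gel with DMS (170 mM, 15 min, 37 °C), with ethanol as control, and sequenced.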

Values are winsor-normalised DMS reactivities of A and C; higher means more reactive, usually unpaired.
One numbering serves 1G, 2G and 3G.
A position is written with its base.

| position | domain | 3G uncapped high-salt dimer | 3G uncapped high-salt monomer |
|---|---|---|---|
| A19 | TAR | 0.03 | 0.03 |
| A21 | TAR | 0.51 | 0.59 |
| C23 | TAR | 1.33 | 1.45 |
| A26 | TAR | 0.08 | 0.09 |
| C28 | TAR | 0.03 | 0.03 |
| C29 | TAR | 0.09 | 0.10 |
| A34 | TAR | 1.07 | 1.25 |
| C36 | TAR | 0.03 | 0.03 |
| C38 | TAR | 0.03 | 0.03 |
| C40 | TAR | 0.03 | 0.03 |
| C44 | TAR | 0.03 | 0.03 |
| A46 | TAR | 0.03 | 0.03 |
| A47 | TAR | 0.13 | 0.12 |
| C48 | TAR | 0.03 | 0.03 |
| A50 | TAR | 0.12 | 0.12 |
| A54 | TAR | 0.14 | 0.15 |
| A55 | TAR | 0.21 | 0.19 |
| C56 | TAR | 0.04 | 0.03 |
| C57 | TAR | 0.03 | 0.03 |
| C58 | PolyA | 0.03 | 0.03 |
| A59 | PolyA | 0.68 | 0.84 |
| C60 | PolyA | 0.56 | 0.75 |
| C63 | PolyA | 0.46 | 0.61 |
| A66 | PolyA | 0.81 | 0.83 |
| A67 | PolyA | 0.66 | 0.96 |
| C69 | PolyA | 0.10 | 0.07 |
| C70 | PolyA | 0.07 | 0.03 |
| C72 | PolyA | 0.12 | 0.10 |
| A73 | PolyA | 0.03 | 0.04 |
| A74 | PolyA | 0.74 | 0.97 |
| A76 | PolyA | 0.24 | 0.28 |
| A77 | PolyA | 0.63 | 0.92 |
| A78 | PolyA | 0.74 | 0.90 |
| C80 | PolyA | 0.24 | 0.29 |
| C84 | PolyA | 0.39 | 0.19 |
| C85 | PolyA | 0.27 | 0.13 |
| A89 | PolyA | 0.65 | 0.78 |
| C93 | PolyA | 0.09 | 0.03 |
| C95 | PolyA | 0.41 | 0.47 |
| A96 | PolyA | 0.26 | 0.35 |
| A97 | PolyA | 0.50 | 0.72 |
| A98 | PolyA | 0.53 | 0.61 |
| A101 | PolyA | 0.27 | 0.29 |
| C109 | U5 | 0.09 | 0.08 |
| C110 | U5 | 0.08 | 0.14 |
| C111 | U5 | 0.14 | 0.30 |
| C114 | none | 0.22 | 0.19 |
| A124 | none | 1.11 | 1.40 |
| C125 | PAS | 0.08 | 0.07 |
| C127 | PAS | 0.03 | 0.03 |
| A132 | PBS | 0.42 | 0.56 |
| A133 | PBS | 1.28 | 1.53 |
| C134 | PBS | 0.17 | 0.16 |
| A136 | PBS | 0.10 | 0.10 |
| A138 | PBS | 0.11 | 0.13 |
| A140 | PBS | 0.37 | 0.40 |
| C142 | PBS | 0.06 | 0.08 |
| C143 | PBS | 0.03 | 0.03 |
| C144 | PBS | 0.03 | 0.03 |
| C146 | PBS | 0.10 | 0.13 |
| A147 | PBS | 0.36 | 0.41 |
| A149 | PBS | 0.07 | 0.07 |
| C150 | PBS | 0.04 | 0.05 |
| C151 | PBS | 0.80 | 0.84 |
| C152 | PBS | 0.79 | 0.85 |
| A157 | PBS | 0.87 | 0.97 |
| C160 | PBS | 0.08 | 0.08 |

3 of these entries, quoted again:

For A34 (domain TAR) the result was 3G uncapped high-salt dimer 1.07; 3G uncapped high-salt monomer 1.25.
For A26 (domain TAR) the result was 3G uncapped high-salt dimer 0.08; 3G uncapped high-salt monomer 0.09.
For C144 (domain PBS) the result was 3G uncapped high-salt dimer 0.03; 3G uncapped high-salt monomer 0.03.

From the data files of Ye et al. 2022, doi:10.1038/s41594-022-00746-2.